The source of these data is patent US20220291215A1, “METHODS OF IDENTIFYING T CELL RECEPTORS” (published 2022).

Experiment [1] deals with memory CD4+ T cells from DP4+ donors, unstimulated (a small subset; their TCRs). Nature of the experiment: flow cytometry ex vivo; 81559 evts in the dimer- CD4+ gate. A general note: Flow cytometry measures light scatter and fluorescence of single cells or particles in a stream.
The target is the same in experiment [2]. Nature of the experiment: flow cytometry ex vivo; 156667 evts in the dimer- CD4+ gate.
Experiment [3] has the same target. As to the kind of experiment: flow cytometry ex vivo; 121598 evts in the dimer- CD4+ gate.
For experiment [4] the target is unchanged. As to the kind of experiment: flow cytometry ex vivo; 53743 evts in the dimer- CD4+ gate.
Experiment [5] shares this target. As to the kind of experiment: flow cytometry ex vivo; 74119 evts in the dimer- CD4+ gate.

For the substance “Flu-HA527-546 DP4^L112W/V141M dimer (peptide-MHC)”, the events in the dimer+ CD4+ gate was determined as 3 evts in experiment [1]; 1 evts in experiment [2]; 0 evts in experiment [3]; 0 evts in experiment [4]; 0 evts in experiment [5].
